Experimental data published in patent publication US20110098448A1, “Anti-prion protein antibody fragment” (published 2011).

Target: recombinant mouse PrP (mouse), P04925

B1: CDR3H (peptide)
chain: YFCARWNWERDAMDYWG
  Kd: 1 to 10 µM
